Earlier results as cited in paper PMC9227918 (Toxins, 2022).

Details: postulated; cited from earlier work

Substance: satratoxin G
- biotransformation: fast biotransformation
